Measured values from US20120094280.
Protein sequences can lack the tags named with them.

Target: T1, M.HhaI DNA cytosine-C5 methyltransferase (UniProt P05102)
T1 sequence (looked up, limits assumed): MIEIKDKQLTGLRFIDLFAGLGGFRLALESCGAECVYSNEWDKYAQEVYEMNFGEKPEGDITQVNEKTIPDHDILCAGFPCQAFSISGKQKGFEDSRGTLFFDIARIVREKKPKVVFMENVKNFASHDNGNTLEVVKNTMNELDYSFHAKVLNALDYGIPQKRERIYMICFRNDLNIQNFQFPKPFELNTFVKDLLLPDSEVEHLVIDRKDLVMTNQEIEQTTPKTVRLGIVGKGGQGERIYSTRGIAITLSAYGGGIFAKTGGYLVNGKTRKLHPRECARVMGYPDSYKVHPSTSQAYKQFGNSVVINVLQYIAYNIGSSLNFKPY
Test: activity assay
Details: aldehyde coupling to target C5, HPLC-MS; pH 7.0, 1 mM EDTA, 15 mM NaCl, room temperature; purified recombinant protein

## TAATAATGCGCTAATAATAATAAT / ATTATTATTATTAGCGCATTATT [duplex I:II]
  activity on this sequence: active
